## Share of PSTVd loop 6 variants by leaf site

Reference: Wu et al. 2024, doi:10.1371/journal.ppat.1012142.

PSTVd intermediate strain, loop 6: wild type UGACCGCGAG, pool pattern UNNNCGNNNG; upper and lower strand joined, each 5' to 3', the first 5 letters being the upper strand, closing pairs included.

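A pool of all variants was put on leaves of three Nicotiana benthamiana plants. Samples came from the inoculated region at 5 days, the leaf margin at 10 and upper systemic leaves at 12.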

Values are reads per thousand in the sample; higher means more abundant, 0 means not found. Each value is the mean of three plants. "Pool" is the share in the plasmid pool used as inoculum, on the same scale. The inoculated region was read from the minus strand, the other sites from the plus strand. IR is the inoculated region, LM the leaf margin, Sys the systemic leaves. Samples held 36,220 to 57,551 reads, so the smallest values rest on one or two reads. The authors trace changes outside the varied positions to PCR and sequencing errors or to mutation in the plant; presence does not show that a variant is infectious alone. Wild type was 20.7 per thousand in the pool and the most common sequence in every sample (inoculated region 195, 198, 203; leaf margin 629, 591, 734; systemic leaves 942, 870, 868).

sequence,pool,IR,LM,Sys
UAAGCGUUGG,0.353,0.0714,0,0
UCAACGGGUG,0.261,0.0773,0,0.0137
UCCACGUCUG,0.314,0.0714,0.00920,0
UAUGCGCCAG,0.105,0.0949,0,0
UCCAGGUUCG,0.0131,0,0,0
UUCUCGCACG,0.366,0.125,0,0
UCGACGGUGG,0.209,0.118,0.00920,0
UGGUCGGAGU,0.0131,0,0,0
UUUACGGGUG,0.209,0.148,0.00920,0
UAGGCGCAUG,0.340,0.0882,0.0261,0
UAAGCGCGCG,0.157,0.0353,0.0155,0
UCCACGCGAG,0.248,0.0656,0.0552,0.0205
UAGGCGCAAG,0.0784,0.0842,0.0232,0
UCAACGGGGG,0.118,0.0652,0.00920,0
UCAACGCAAG,0.105,0.696,0.0723,0.00684
UUGGCGCUCG,0.327,0.113,0,0
UCACCGCUCG,0.275,0.0773,0.0309,0.0254
UAAGCGUGGG,0.157,0.0842,0.00773,0
UAGACGCCCG,0.288,0.0771,0.0169,0
UGUGCGGAGA,0.0131,0.00599,0,0
UCCACGUCCG,0.288,0.0900,0.00773,0
UCUUCGUAUG,0.379,0.102,0.116,0
UGGUCGGCCG,0.235,0.0951,0,0
UAUACGUGCG,0.327,0.578,0.0712,0.00673
GGACCGAACG,0.0131,0.0243,0,0
UCUCCGAAUG,0.327,0.107,0,0
UGGCCGUAAG,0.144,0.0963,0.0247,0
UGGGCGGAUG,0.157,0.0483,0.0368,0
UGACCGGAUG,0.471,0.195,0.251,0.218
UGCCCGAGAG,0.235,0.0952,0.0176,0
UCACCGGCGG,0.170,0.137,0.00773,0
UUAACGGAUG,0.235,0.530,0.0676,0
UUAGCGGGAG,0.431,0.632,0.0974,0.0339
UCACCGGACG,0.170,0.0773,0.0155,0
UAGACGCGGG,0.261,0.138,0,0
UGCACGUGGG,0.170,0.0896,0,0
UGAGCGCGUG,0.248,0.125,0.00920,0
UUGACGUCCG,0.196,0.0840,0.0247,0
UCCUCGAUCG,0.118,0.102,0.00773,0
UGACCGCCCG,0.392,0.197,0.169,0.236
UUAACGAUCG,0.209,0.642,0.0654,0.0203
UUUACGGCCG,0.196,0.620,0.0276,0
UUUUCGGCCG,0.144,0.0727,0.0232,0
UGAGCGAAUG,0.275,0.118,0.00773,0
UAGUCGUCGG,0.288,0.0712,0.00773,0
UUGUCGACGG,0.235,0.131,0,0
UACUCGCGAG,0.118,0.192,0.172,0.0137
UUACCGGGCG,0.105,0.173,0.0169,0
UCACCGUGCG,0.157,0.0772,0.0155,0
UGUUCGACCG,0.314,0.124,0.0247,0
UAAACGGAUG,0.327,0.518,0.0946,0.0323
UAGCCGUUCG,0.327,0.165,0.339,0
UUGGCGCACG,0.288,0.0952,0.00920,0
UACACGAUGG,0.235,0.0540,0.00773,0
UUUGCGAAAG,0.235,0.0955,0.0184,0
UGGUCGCGUG,0.248,0.0910,0,0
UGGCCGGCUG,0.327,0.154,0.0445,0
UAACCGCCAG,0.157,0.675,0.0760,0.0340
UCAUCGGACG,0.209,0.578,0.111,0
UUGCCUGUGG,0.0131,0,0,0
UUUGCGUGUG,0.144,0.0830,0,0
UAGUCGUAAG,0.118,0.0889,0,0
CGACCGCCUG,0.0131,0.559,0.0873,0

Extract of 5 entries:

sequence	pool	IR	LM	Sys
UACUCGCGAG	0.118	0.192	0.172	0.0137
UUGCCUGUGG	0.0131	0	0	0
UGGCCGGCUG	0.327	0.154	0.0445	0
UAGGCGCAUG	0.340	0.0882	0.0261	0
UCCACGUCUG	0.314	0.0714	0.00920	0